Measured values from several laboratories, pooled; numbers as filed in NIAID ChemDB.

Common to all: cytotoxicity tests; cell line: CEM; read-out: CC50

Conditions beyond the fields shown may differ between rows. CCn is the concentration with n% toxicity to the cells.

SMILES,result
COc1c(-c2ccc(O)c(O)c2)oc2c(O)c(O)cc(O)c2c1=O,78 µM
C[C@@]1(Br)C(=O)NC(=O)N([C@H]2C=C[C@@H](CO)O2)[C@H]1N=[N+]=[N-],44.7 µM
Cc1cc(O)c2c(c1O)C(=O)C13C(=C2O)C(=O)C2C(O)C1C1C(O)C3C(=O)C3=C(O)c4c(O)cc(C)c(O)c4C(=O)C321,0.09 µM
CC(=O)c1cnnn1[C@@H]1O[C@H](CO[Si](C)(C)C(C)(C)C)C2(OS(=O)(=O)C=C2N)[C@H]1O[Si](C)(C)C(C)(C)C,>1.1 µM
Nc1ncnc2c1ncn2C1OC(CO)C=C1F,>100 µM
CN(C)C1C(=O)C(C(=O)NCNCCCO)=C(O)C2(O)C(=O)C3=C(O)c4c(O)cccc4C(C)(O)C3CC12,>120 µM
[B-][P@](=O)(OC[C@H]1O[C@@H](n2cc(C)c(=O)[nH]c2=O)C[C@@H]1N=[N+]=[N-])OP(=O)(O)C(F)(F)P(=O)(O)O,>165 µM
O=c1cc2c(=O)oc3cc(O)c(O)oc3c2c(O)c1O,15.7 µM
CN(C)C1C(=O)C(C(=O)NCNCCC(=O)O)=C(O)C2(O)C(=O)C3=C(O)c4c(O)cccc4C(C)(O)C3CC12,>111 µM
Nc1nc2c(ncn2[C@H]2CC[C@@H](CO)O2)c(=O)o1,>500 µg/mL
CCCCCCCCCCCC(=O)NCC(COP(=O)([O-])OCC[N+](C)(C)C)OCCCCCCCC,56.8 µM
CC(C)(C)[Si](C)(C)OC[C@H]1O[C@@H](n2cc(C(N)=O)nn2)[C@H](O[Si](C)(C)C(C)(C)C)C12OS(=O)(=O)C=C2N,>0.9 µM
O/N=C1\C(=C\c2ccc3c(c2)OCCO3)CCCC1C(NO)c1ccc2c(c1)OCCO2,>165 µM
CC(C)(C)OC(=O)N[C@@H](Cc1ccccc1)[C@H](O)CNC[C@@H](O)[C@H](Cc1ccccc1)NC(=O)OC(C)(CO)CO,>10 µM
O/N=C1\C(=C\c2ccc3c(c2)OCO3)CCCC1C(NO)c1ccc2c(c1)OCO2,>127 µM
Nc1ncnc2c1ncn2[C@@H]1O[C@@H](CO)C=C1F,>100 µM
CCOC(=O)c1cn([C@@H]2O[C@H](CO[Si](C)(C)C(C)(C)C)C3(OS(=O)(=O)C=C3N)[C@H]2O[Si](C)(C)C(C)(C)C)nn1,>0.28 µM
Nc1nc2c(ncn2[C@@H]2O[C@H](CO)[C@@H](O)[C@H]2O)c(=O)o1,440 µg/mL
CC(C)=CCOc1cc(NC(=S)c2ccoc2C)ccc1Cl,>100 µg/mL
O=c1oc(C23CC4CC(CC(C4)C2)C3)nc2ccc(Br)cc12,>200 µM
CN(C)C1C(=O)C(C(=O)NCNC(CCS(C)=O)C(=O)[O-])=C(O)C2(O)C(=O)C3=C(O)c4c(O)cccc4C(C)(O)C3CC12.[Na+],>100 µM
CC(C)Nc1cccnc1N1CCN(C(=O)c2cc3cc(NS(C)(=O)=O)ccc3[nH]2)CC1,>20 µg/mL
CN(C)[C@H]1C(=O)C(C(=O)NCN2CCN(C(=N)N=C(N)N)CC2)=C(O)[C@]2(O)C(=O)C3=C(O)c4c(O)cccc4[C@](C)(O)[C@@H]3C[C@H]12,>0.3 µM
CCCCCCCCCCCC(=O)NCC(COP(=O)([O-])OCC[N+](C)(C)C)OCCCCCCCCCC,27.6 µM
CCCCc1cnnn1[C@@H]1O[C@H](CO[Si](C)(C)C(C)(C)C)C2(OS(=O)(=O)C=C2N)[C@H]1O[Si](C)(C)C(C)(C)C,>1.5 µM
Nc1nc2c(ncn2[C@@H]2C[C@H](COP(=O)(O)O)[C@@H](O)[C@H]2O)c(=O)o1,>500 µg/mL
Cc1cn([C@H]2C[C@H](N=[N+]=[N-])[C@@H](CO)O2)c(=O)[nH]c1=O,35.6 µM
CCO[C@@H]1N([C@H]2C=C[C@@H](CO)O2)C(=O)NC(=O)[C@@]1(C)Br,>14 µM
CCNC(=O)c1cc(Cl)ccc1NC(=O)C12CC3CC(CC(C3)C1)C2,>200 µM
CO[C@@H]1N([C@H]2C=C[C@@H](CO)O2)C(=O)NC(=O)[C@@]1(C)Br,>128 µM
COc1cc(O)c2c(c1O)C(=O)c1cc(C)ncc1C2=O,3.1 µM
CN(C)[C@@H]1C(=O)C(C(=O)NCNC(CO)(CO)CO)=C(O)[C@@]2(O)C(=O)C3=C(O)c4c(O)cccc4[C@@](C)(O)[C@H]3C[C@@H]12.Cl,>34.3 µM
CC(C)(C)OC(=O)N[C@@H](Cc1ccccc1)[C@H](O)CNC[C@@H](O)[C@H](Cc1ccccc1)NC(=O)OC(C)(C)CCCO,>10 µM
CCCCCCCCCCCCOC(CNC(=O)CCCCCCCCCCC)COP(=O)([O-])OCC[N+](C)(C)C,30.3 µM
CC(C)=CCOc1cc(NC(=S)c2ccsc2C)ccc1Cl,5.8 µg/mL
Nc1nc2c(ncn2[C@H]2C=C[C@@H](CO)C2)c(=O)o1,>500 µg/mL
CO[C@@H]1N([C@H]2C=C[C@@H](CO)O2)C(=O)NC(=O)[C@@]1(C)I,66 µM
CC1COCCOC(=O)c2cccc(n2)C(=O)OCCOCC(C)O1,0.8 µM
CN(C)C(=O)c1cnnn1[C@@H]1O[C@H](CO[Si](C)(C)C(C)(C)C)C2(OS(=O)(=O)C=C2N)[C@H]1O[Si](C)(C)C(C)(C)C,>0.12 µM
NNC(=O)c1cc(Cl)ccc1NC(=O)C12CC3CC(CC(C3)C1)C2,15.1 µM
C[C@@H](O)C(C)(C)OC(=O)N[C@@H](Cc1ccccc1)[C@H](O)CNC[C@@H](O)[C@H](Cc1ccccc1)NC(=O)OC(C)(C)C,>10 µM
CCCCCCCCCCCC(=O)NCC(COP(=O)([O-])OCC[N+](C)(C)C)OCCCCCC,40.2 µM
CCCNC(=O)c1cc(OC)c(OC)cc1NC(=O)C12CC3CC(CC(C3)C1)C2,>200 µM
C[C@H](Cn1cnc2c(N)nc(N)nc21)OCP(=O)(O)O,>300 µM
NS(=O)(=O)c1ccc(Nc2c3ccccc3nc3c(C(=O)NC(CO)(CO)CO)cccc23)cc1,>3.4 µM
CCCCCCCCCCCCCCCOP(=O)(OCc1ccc(OC(=O)CCCC)cc1)OP(=O)(O)OP(=O)(O)OC[C@@H]1C=C[C@H](n2cc(C)c(=O)[nH]c2=O)O1,22 µM
CCNC(=O)c1cc(OC)c(OC)cc1NC(=O)C12CC3CC(CC(C3)C1)C2,>200 µM
COCC(C)(C)OC(=O)N[C@@H](Cc1ccccc1)[C@H](O)CNC[C@@H](O)[C@H](Cc1ccccc1)NC(=O)OC(C)(C)C,>10 µM
CCCNC(=O)c1cc(Cl)ccc1NC(=O)C12CC3CC(CC(C3)C1)C2,>200 µM
CC(C)=CCN1Cc2cc(Cl)cc3[nH]c(=S)n(c23)C[C@@H]1C,>20 µg/mL

Repeating the first 7 entries:

SMILES | result
COc1c(-c2ccc(O)c(O)c2)oc2c(O)c(O)cc(O)c2c1=O | 78 µM
C[C@@]1(Br)C(=O)NC(=O)N([C@H]2C=C[C@@H](CO)O2)[C@H]1N=[N+]=[N-] | 44.7 µM
Cc1cc(O)c2c(c1O)C(=O)C13C(=C2O)C(=O)C2C(O)C1C1C(O)C3C(=O)C3=C(O)c4c(O)cc(C)c(O)c4C(=O)C321 | 0.09 µM
CC(=O)c1cnnn1[C@@H]1O[C@H](CO[Si](C)(C)C(C)(C)C)C2(OS(=O)(=O)C=C2N)[C@H]1O[Si](C)(C)C(C)(C)C | >1.1 µM
Nc1ncnc2c1ncn2C1OC(CO)C=C1F | >100 µM
CN(C)C1C(=O)C(C(=O)NCNCCCO)=C(O)C2(O)C(=O)C3=C(O)c4c(O)cccc4C(C)(O)C3CC12 | >120 µM
[B-][P@](=O)(OC[C@H]1O[C@@H](n2cc(C)c(=O)[nH]c2=O)C[C@@H]1N=[N+]=[N-])OP(=O)(O)C(F)(F)P(=O)(O)O | >165 µM